Results taken from PubChem BioAssay AID220 (DTP/NCI, 2004).
Records with an inconclusive call do not appear.

System: CD8F1 mice, subcutaneous mammary adenocarcinoma, T/C%
Assay: NCI In Vivo Anticancer Drug Screen. Data for tumor model Mammary Adenocarcinoma CD8F1 (subcutaneous) in CD8F1
Conditions: endpoint: median tumor weight change, schedule: Q01DX001 (ip), vehicle: saline, higher = larger tumour
Description: The antitumor activity of compounds was measured in mice bearing transplantable tumors. Survival or tumor size were measured and the results are expressed as the measurement made in the treated group (T) divided by the measurement made in the vehicle treated control group (C). The tumor model used in this assay is Mammary Adenocarcinoma CD8F1 (subcutaneous) in CD8F1

## O=P1(N(CCCl)CCCl)NC(SCCS(=O)(=O)O)CCO1 (centres undefined)
dose: 62.5 mg/kg/injection
  T/C: 100 % of control
dose: 125.0 mg/kg/injection
  T/C: 71 % of control
dose: 250.0 mg/kg/injection
  T/C: 28 % of control
dose: 500.0 mg/kg/injection
  T/C: -78 % of control
